Experimental data published in paper doi:10.1101/2023.06.14.544911.

Amino acid sequences for entries named in this document (tags omitted). A change or cut given only in a name is not applied to a line headed by its entry.
UniProt Q9NUD5: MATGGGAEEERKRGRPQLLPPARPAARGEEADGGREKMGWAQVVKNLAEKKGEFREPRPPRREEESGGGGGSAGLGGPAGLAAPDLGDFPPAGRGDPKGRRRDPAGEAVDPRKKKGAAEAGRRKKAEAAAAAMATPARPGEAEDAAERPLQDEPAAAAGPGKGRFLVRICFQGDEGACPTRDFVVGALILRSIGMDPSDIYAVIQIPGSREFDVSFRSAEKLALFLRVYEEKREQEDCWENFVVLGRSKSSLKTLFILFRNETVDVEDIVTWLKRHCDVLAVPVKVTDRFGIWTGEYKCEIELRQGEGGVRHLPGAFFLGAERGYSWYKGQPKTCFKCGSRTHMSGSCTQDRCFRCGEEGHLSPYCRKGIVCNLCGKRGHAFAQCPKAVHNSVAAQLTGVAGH

Molecular target: T1, ZCCHC3 MF R168/247S R168S,R247S (human) (UniProt Q9NUD5)
T1 sequence (looked up): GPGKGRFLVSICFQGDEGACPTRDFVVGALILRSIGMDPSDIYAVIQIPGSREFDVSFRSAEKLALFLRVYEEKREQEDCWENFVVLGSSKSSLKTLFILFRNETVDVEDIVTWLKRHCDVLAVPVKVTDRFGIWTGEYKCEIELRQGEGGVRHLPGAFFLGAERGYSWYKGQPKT
Test: pull-down
Conditions: residues 159-334

CUAGAGAUCCCUCAGACCCUUUUAGUCAGUGUGGAAAAUCUCUAG [SL3]
binding result: binds more weakly

Construct, isoform or probe ends are uncertain for at least one entry. Weaker means in comparison with the reference protein, sequence or condition of that experiment. At least one verdict was read from the data and is not stated in words by the source. Tags and fusion partners may be left off the protein sequences shown.
